# Screening data, single-dose tests

Results are given as percent effect. The record does not define 0% and 100%; most values in the screen are far below 50% and negative numbers occur (in some assays of this library far below -100). Many other results are left out here, so strong results are more common than in the screen.

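Growth of Mycobacterium tuberculosis over 4 days (cholesterol / DPPC medium with tyloxapol); the read-out is not stated. Tested at 500 µM. The record gives no direction; compounds that gave an IC50 in retests scored well above the rest, so higher reads as more growth inhibition. Size under these conditions: about 18,000 compounds, about 900 of them at 50% or above in at least one test.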

SMILES,effect
Cc1ccc2[nH]c(C(C)N)nc2c1 (centres undefined),-4.033
Cn1nnnc1SCCNCc1ccc(Br)cc1,73.91
CNC(=O)c1ccc(S(=O)(=O)N2CCC=C(F)C2)cc1,13.22
Nc1ccc(CC2CCNCC2)cn1,-0.699
CN(CC(N)=O)Cc1ccccc1N1CCCC1,43.67
CN1CCN(C(=O)Cc2ccc3c(c2)OCO3)CC1,-24.02
CN(CCC(N)=O)Cc1ccc(Br)o1,20.22
CCCn1cc(C(=O)N2CCN(CCO)CC2)c(C)n1,-4.571
c1cn(C2CCNCC2)nn1,56.79
CCCn1nnnc1NCc1ccc2c(c1)OCO2,22.19
CSCC(=O)N1CCN(C)Cc2ccccc21,5.516
Cc1nc(C(=O)NC(C)C(C)C)ccc1C#N (centres undefined),35.33
CCNC(=O)C1CCN(c2ccncc2Cl)CC1,1.738
O=S(=O)(NC1CCCNC1)c1ccccc1 (centres undefined),-2.677
CCOc1ccc2c(c1)C=C(C(=O)NC)CO2,58.69
CC1CN(C)c2ccccc2CN1C(=O)c1cc[nH]n1 (centres undefined),7.376
CCNC(=O)c1cc2ccccc2n1C,24.56
CCCN(C)S(=O)(=O)NC(C)c1ccc(OC)c(F)c1 (centres undefined),74.48
Cc1nc2c(o1)CCCC2O (centres undefined),-7.876
COc1ccc(CN2C[C@@H](O)[C@@H](O)C2)c(Br)c1OC,19.07
COc1cccc(CC2(O)CCNCC2)c1,-5.09
CSc1cc(NC(=O)NCCc2ccccn2)ccn1,60.08
CC(C)C1c2nccn2CCCN1C(=O)c1cocn1 (centres undefined),-15.1
c1cc(C2CCCCN2)n[nH]1 (centres undefined),-6.529
O=C(Nc1nc(-c2ccsc2)ns1)C1CCCN1 (centres undefined),64.9
CCn1nnnc1NCc1sccc1C,10.15
O=C(NCc1cc[nH]n1)N1CCc2sccc2C1,3.401
CC(Cn1c(=O)[nH]c2ccccc2c1=O)N1CCCC1 (centres undefined),50.89
CC(=O)NC1CCCN(c2cncc(Cl)n2)C1 (centres undefined),7.284
CNC1(CO)CCc2ccccc21 (centres undefined),1.489
CCCOc1cc(CNC(=O)c2csnc2C)ccn1,69.93
O=C(CCc1ccccc1)NCCNc1cnccn1,5.408
CNC(=O)NC(=O)CCN1CCCCC1,12.45
CC(C)(C)C(=O)N1CCCN(C2CCOC2=O)CC1 (centres undefined),-8.878
CC1=CCN(CCN)CC1,-3.191
CCOC(=O)c1ccc(S(=O)(=O)N[C@@H](C)CO)cc1,-4.726
OC[C@@H]1CCCN1Cc1ccc(F)c2cccnc12,1.681
COC(=O)CCCC(=O)N1CCCc2ccc(F)cc21,48.01
FC(F)OC1CCCNC1 (centres undefined),-11.83
CCc1nccn1CCNC(=O)CN1CCCC1,-0.1216
NCC(=O)Nc1ccccc1,1.992
CS(=O)(=O)N1CCC[C@H]1C(=O)NCCSc1cnn[nH]1,11.87
Cc1cc(C)c2cc(C(=O)NCCO)[nH]c2c1,7.371
CCCc1nc(C(=O)NCCS(=O)(=O)N(C)C)cs1,10.46
CCn1c(CN(C)CC(=O)NC)nnc1[C@H]1C[C@H](N)C1,1.015
CN(CC(N)=O)C(=O)c1csc(-c2ccc(F)cc2)n1,-9.434
CNC(=O)NC(=O)CCN1CCc2ccccc2C1,77.22
CC(=O)NCCS(=O)(=O)N1CCc2ccccc21,3.504
Cc1ccc(NC(=O)N2CCCN(C)CC2)cc1,3.28
Cc1cnccc1NCCNC(=O)CCC(F)(F)F,-9.138
CC(C)C(O)CCNS(=O)(=O)c1ccccc1 (centres undefined),8.189
CC(C)NC(=O)NC(C)c1ccccc1 (centres undefined),68.58
CC(=O)c1cccc(S(=O)(=O)N(C)CC(=O)N(C)C)c1,-12.55
CC(C)(CNC(=O)N1CCC1)c1ccc2c(c1)OCO2,15.7
Cn1nccc1CNC(=O)c1cccc(C#N)c1,-0.9033
COc1ccnc(N2CCCNCC2)n1,59.99
COCCCN1CCC(CNc2ncncn2)C1 (centres undefined),11.9
Cc1cc(C(=O)NC(C)(C)CO)cc(C)c1F,10.03
CCC(CNS(=O)(=O)N(C)CC)c1ccccc1 (centres undefined),63.87
CCN(CC)S(=O)(=O)c1cccc(NCC(=O)OC)c1,-2.883
CC(C)(C)OC(=O)N1CCC(n2cc(N)cn2)CC1,67.52

5 of the entries, repeated:

SMILES,effect
CCOC(=O)c1ccc(S(=O)(=O)N[C@@H](C)CO)cc1,-4.726
CNC(=O)NC(=O)CCN1CCc2ccccc2C1,77.22
CC(C)C(O)CCNS(=O)(=O)c1ccccc1 (centres undefined),8.189
CC(C)C1c2nccn2CCCN1C(=O)c1cocn1 (centres undefined),-15.1
Cc1cnccc1NCCNC(=O)CCC(F)(F)F,-9.138

Measurements from “University of Dundee, Small-Polar-MMV Screening Library” (2021), ChEMBL document CHEMBL3988442.